pEC50, pKi: −log10 of the molar value.
Key:
[1] = test system: SARS-CoV-2 in Vero E6 cells; assay: Anti-CoV-2 activity in Vero E6 cells; type: cell-based; conditions: for pEC50: read-out: Anti-CoV-2 EC50 Vero E6 Cells
[2] = test system: SARS-CoV-2 in A549/ACE2 cells; conditions: read-out: Anti-CoV-2 EC50 A549/ACE2 Cells
SARS-CoV-2 3CL protease = SARS-CoV-2 3CL protease (Severe acute respiratory syndrome coronavirus 2 (2019-nCoV) (SARS-CoV-2), UniProt P0DTD1); conditions: read-out: Ki* 3CLpro; pH 7.5
cruzain = cruzain (Trypanosoma cruzi, UniProt P25779); conditions: read-out: Ki* Cruzain; obtained >10 minutes following initiation of reaction by addition of enzyme; pH 7.5

Chains of the proteins cited; added tags and fusions are not shown. Residues count along the entry.
UniProt P25779, 123-467 limits assumed: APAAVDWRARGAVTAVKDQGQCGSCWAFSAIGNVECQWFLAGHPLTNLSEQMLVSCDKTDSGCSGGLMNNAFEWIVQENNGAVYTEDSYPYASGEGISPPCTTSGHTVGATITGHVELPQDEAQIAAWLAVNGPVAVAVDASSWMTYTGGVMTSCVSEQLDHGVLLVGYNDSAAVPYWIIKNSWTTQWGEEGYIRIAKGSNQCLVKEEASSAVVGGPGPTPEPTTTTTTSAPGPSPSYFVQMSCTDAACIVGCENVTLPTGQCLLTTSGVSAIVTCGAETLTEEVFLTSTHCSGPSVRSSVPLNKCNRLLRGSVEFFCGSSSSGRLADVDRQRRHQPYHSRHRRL

Q: With `O=C[C@H](Cc1ccc[nH]c1=O)NC(=O)[C@H](Cc1ccc([N+](=O)[O-])cc1)NC(=O)c1cc2ccccc2[nH]1` as the compound, how does the pEC50 [1] read?
A: The pEC50 was less than 4.70.

Q: What about the pEC50 [2] of the same compound?
A: The pEC50 was less than 4.70.

Q: With `CC(C)[C@H](NC(=O)OCc1ccccc1)C(=O)N[C@@H](CC1CCCCC1)C(=O)N[C@H](C=O)Cc1ccc[nH]c1=O` as the compound, how does the pKi (SARS-CoV-2 3CL protease) read?
A: The pKi was 8.05.

Q: What about the pEC50 [2] of the same compound?
A: Its pEC50 is 5.30.

Q: Which results are given for `CN1CCN(C(=O)N[C@@H](Cc2ccccc2)C(=O)N[C@H](C=O)Cc2ccc[nH]c2=O)CC1`?
A: Anti-CoV-2 EC50 Vero E6 Cells [1]: no activity; pEC50 [1]: < 4.70; pEC50 [2]: < 4.70; pKi (cruzain): 8.70

Q: How did the pKi (SARS-CoV-2 3CL protease) turn out when `CC(=O)N[C@H](C(=O)N[C@@H](CC1CCCCC1)C(=O)N[C@H](C=O)Cc1ccc[nH]c1=O)C(C)C` was run?
A: Its pKi is 7.22.

Q: And the pEC50 [1]?
A: Its pEC50 is less than 4.70.

Q: With `CC(=O)N[C@H](C(=O)N1CCC[C@H]1C(=O)N[C@H](C#N)Cc1ccc[nH]c1=O)C(C)C` as the compound, how does the pKi (SARS-CoV-2 3CL protease) read?
A: The pKi was 6.84.

Q: What about the pEC50 [1] of the same compound?
A: The pEC50 was less than 4.70.

Q: What about the pEC50 [2] of the same compound?
A: The pEC50 was less than 4.70.

Q: With `CC(C)C[C@H](NC(=O)c1cc2ccccc2[nH]1)C(=O)N[C@H](C=O)Cc1ccc[nH]c1=O` as the compound, how does the pEC50 [1] read?
A: The pEC50 was less than 4.70.

Q: What about the pEC50 [2] of the same compound?
A: Its pEC50 is less than 4.70.

Q: `CC(=O)N[C@H](C(=O)N1CCC[C@H]1C(=O)N[C@H](C=O)Cc1ccc[nH]c1=O)C(C)C` was tested. Which pKi (SARS-CoV-2 3CL protease) did it give?
A: The pKi was 5.94.

Q: And the pEC50 [1]?
A: The pEC50 was less than 4.70.

Q: What about the pEC50 [2] of the same compound?
A: Its pEC50 is less than 4.70.

Source: patent US20240150396A1 (The Texas A&M University System, priority 2021, published 2024)
